Anti-infective test results gathered from many reports (values: NIAID ChemDB through PubChem).

Shared fields: target-level tests; organism: HIV-1; target: Integrase; method: 3′ processing; endpoint: IC50

Conditions beyond the fields shown may differ between rows. ICn: concentration for n% inhibition.

{"compound": "COC(=O)CCCCC(=O)c1cc(C)c(OC)c(C(=O)OC)c1", "result": "500 µM"}
{"compound": "O=C(NCCC(NC(=O)c1ccc(O)c(O)c1)C(=O)O)c1ccc(O)c(O)c1", "result": ">10 µM"}
{"compound": "Brc1ccc(CSc2nc3ccccc3s2)cc1", "result": ">1000 µM"}
{"compound": "COC(=O)C(CCNC(=O)/C=C/c1cc(O)c(O)c(O)c1)NC(=O)/C=C/c1cc(O)c(O)c(O)c1", "result": "0.44 µM"}
{"compound": "Cc1cc(=O)n(-c2cccc(Cl)c2)n1C(=O)c1ccco1", "result": ">1000 µM"}
{"compound": "COc1ccc(CCNC(=O)c2cc3cc4c(cc3[nH]2)OCO4)cc1OC", "result": ">100 µM"}
{"compound": "O=C(/C=C/c1ccc(O)c(O)c1)OCCc1cccc(N=C=S)c1", "result": "3 µM"}
{"compound": "Cc1c(NC(=O)c2ccco2)c(=O)n(-c2ccccc2)n1C", "result": ">1000 µM"}
{"compound": "COC(=O)[C@H](CCCCNC(=O)/C=C/c1ccc(O)c(O)c1)NC(=O)/C=C/c1ccc(O)c(O)c1", "result": "0.89 µM"}
{"compound": "O=C(Nc1ccc2c(O)c(N=Nc3ccc(C(=O)O)cc3)c(S(=O)(=O)O)cc2c1)Nc1ccc2c(O)c(N=Nc3ccc(C(=O)O)cc3)c(S(=O)(=O)O)cc2c1", "result": "0.35 µM"}
{"compound": "O=C(NCCCC(NC(=O)c1ccc(O)c(O)c1)C(=O)O)c1ccc(O)c(O)c1", "result": ">10 µM"}
{"compound": "[N-]=[N+]=NC[C@H]1O[C@@H](n2cnc3c(NC(=O)Nc4ccccc4)ncnc32)[C@H](O)[C@@H]1CC(=O)O", "strain or isolate": "NL4-3", "result": ">10 µM"}
{"compound": "O=S(=O)(Nc1ccc(F)c(Cl)c1)c1cccc2cnccc12", "result": "860 µM"}
{"compound": "COC(=O)CCC/C=C(/c1ccc(OC)c(C(C)=O)c1)c1cnccn1", "result": "1.3 µM"}
{"compound": "Cc1cc(=O)n(-c2ccc(Br)cc2F)n1C(=O)c1ccco1", "result": ">1000 µM"}
{"compound": "CCOC(=O)c1cccc(N=Nc2c(S(=O)(=O)O)cc3cc(NC(=O)Nc4ccc5c(O)c(N=Nc6cccc(C(=O)OCC)c6)c(S(=O)(=O)O)cc5c4)ccc3c2O)c1", "result": "2 µM"}
{"compound": "O=C(/C=C/c1ccc(O)c(O)c1)NCCCC[C@H](NC(=O)/C=C/c1ccc(O)c(O)c1)C(=O)O", "result": "<10 µM"}
{"compound": "O=S(=O)(c1cccc2cnccc12)n1cncn1", "result": ">1000 µM"}
{"compound": "CCOC(=O)C[C@H]1[C@@H](O[Si](C)(C)C(C)(C)C)[C@H](n2cnc3c(NC(=O)Nc4ccccc4)ncnc32)O[C@@H]1CNC(=O)NC", "strain or isolate": "NL4-3", "result": ">10 µM"}
{"compound": "N#Cc1ccccc1-c1ccc(CS(=O)(=O)c2nc3ccccc3s2)cc1", "result": "700 µM"}
{"compound": "O=C(NCCCCNC(=O)c1cc2cc3c(cc2[nH]1)OCO3)c1cc2cc3c(cc2[nH]1)OCO3", "result": ">100 µM"}
{"compound": "Cc1cc(C(=O)O)ccc1N=Nc1c(S(=O)(=O)O)cc2cc(NC(=O)Nc3ccc4c(O)c(N=Nc5ccc(C(=O)O)cc5C)c(S(=O)(=O)O)cc4c3)ccc2c1O", "result": "0.4 µM"}
{"compound": "O=C(NCCCNC(=O)c1cc2cc(O)c(O)cc2[nH]1)c1cc2cc(O)c(O)cc2[nH]1", "result": "4.2 µM"}
{"compound": "O=C(/C=C/c1ccc(O)c(O)c1)Oc1cccc2c(N=C=S)cccc12", "changes": "C65S", "result": "4 µM"}
{"compound": "O=C(O)C(=O)/C=C(\\O)c1cn(Cc2ccc(F)cc2)c2ccc(OCc3ccc(F)cc3)cc2c1=O", "result": "3 µM"}
{"compound": "O=C(NC(CNC(=O)c1ccc(O)c(O)c1O)C(=O)O)c1cc(O)c(O)c(O)c1", "result": "0.38 µM"}
{"compound": "O=C(/C=C/c1ccc(O)c(O)c1)OCCc1ccc(NC(=S)SCCO)cc1", "changes": "C56S", "result": "23 µM"}
{"compound": "O=C(/C=C(\\O)c1cccc(OCc2ccccc2)c1)C(=O)NC1CCC(NC(=O)C(=O)/C=C(\\O)c2cccc(OCc3ccccc3)c2)CC1", "result": ">100 µM"}
{"compound": "O=C(/C=C/c1ccccc1)OCCc1ccc(N=C=S)cc1", "changes": "C65S", "result": ">100 µM"}
{"compound": "O=C(NCCc1ccccc1)c1cc2cc(O)c(O)cc2[nH]1", "result": "3.5 µM"}
{"compound": "COC(=O)C(=O)/C=C(\\O)c1ccccc1F", "result": ">100 µM"}
{"compound": "O=C(c1cc2cc(O)c(O)cc2[nH]1)N1CCN(C(=O)c2cc3cc(O)c(O)cc3[nH]2)CC1", "result": "3.6 µM"}
{"compound": "O=C(Nc1ccc2c(O)c(N=Nc3ccc(C(=O)O)cc3)c(S(=O)(=O)O)cc2c1)C(=O)Nc1ccc2c(O)c(N=Nc3ccc(C(=O)O)cc3)c(S(=O)(=O)O)cc2c1", "result": "3 µM"}
{"compound": "O=C(NCCCCCCNC(=O)c1cc2cc(O)c(O)cc2[nH]1)c1cc2cc(O)c(O)cc2[nH]1", "result": "46 µM"}
{"compound": "COC(=O)CCC/C=C(/c1ccc(OC)c(C(C)=O)c1)c1ccc(OC)c(C(=O)OC)c1", "result": "2.1 µM"}
{"compound": "O=C(Nc1ccc2c(O)c(N=Nc3cccc(C(=O)O)c3)c(S(=O)(=O)O)cc2c1)C(=O)Nc1ccc2c(O)c(N=Nc3cccc(C(=O)O)c3)c(S(=O)(=O)O)cc2c1", "result": "1 µM"}
{"compound": "COC(=O)CCCC=C(c1ccc(OC)c(Cl)c1)c1ccc(OC)c(Cl)c1", "result": "23 µM"}
{"compound": "COC(=O)C(CCNC(=O)/C=C/c1ccc(O)c(O)c1)NC(=O)/C=C/c1ccc(O)c(O)c1", "result": "~10 µM"}

3 of the rows above, restated:

{"compound": "[N-]=[N+]=NC[C@H]1O[C@@H](n2cnc3c(NC(=O)Nc4ccccc4)ncnc32)[C@H](O)[C@@H]1CC(=O)O", "strain or isolate": "NL4-3", "result": ">10 µM"}
{"compound": "O=C(NCCC(NC(=O)c1ccc(O)c(O)c1)C(=O)O)c1ccc(O)c(O)c1", "result": ">10 µM"}
{"compound": "O=C(NCCc1ccccc1)c1cc2cc(O)c(O)cc2[nH]1", "result": "3.5 µM"}